Pooled drug test results. Numbers come from NIAID ChemDB, via PubChem.

All rows: tests in culture; agent: Mycobacterium avium; read-out: MIC

Neighbouring rows are from separate reports. An empty or dashed field is not shown. Two numbers with a dash give a range or band.

Cc1ccc2occ(/C=N/c3nc4c(Cl)cccc4s3)c(=O)c2c1 ; strain: MY 80/72 ; value: >100 µg/mL
Cc1ccn2c(C(=O)NCc3ccc(N4CCN(c5ccc(C(F)(F)F)cn5)CC4)c(F)c3)c(C)nc2c1 ; strain: 104 ; changes: Gentamicin-resistant ; method: resazurin ; value: <0.0078 µg/mL
O=C(NCc1cccnc1)c1ccccc1O ; strain: ATCC 25291 ; conditions: 14 d ; value: 500 µM
CC(C)c1c(O)cc(C(N=C(N)N)C(=O)NCC(=O)O)cc1O ; strain: Strain #2 ; value: 3.13 µg/mL
CCCCCCc1ccc(NC(=O)c2cc(Br)ccc2O)cc1 ; strain: MY330/88 ; value: 16 µM
COc1cc(/C=N/N(C(=O)c2ccncc2)C(=O)c2cnccn2)ccc1O ; strain: ATCC49601 ; value: >16 µg/mL
CCOc1cccc(NC(=O)OCC[NH+]2CCCC2)c1 ; strain: MY330/88 ; value: >1000 µM
O=C(NCc1cccnc1)c1cc(Br)cc(Br)c1O ; strain: ATCC 25291 ; conditions: 14 d ; value: 1000 µM
CCCCCCCOc1ccccc1NC(=O)OCCN1CCCCC1 ; strain: MY330/88 ; value: 32 µM
CCCCCCc1ccc(NC(=O)c2cc(Cl)ccc2O)cc1 ; strain: MY330/88 ; value: 8 µM
CCCCCCCCCCCCNC[C@H]1O[C@H](O[C@H]2O[C@H](CNCCCCCCCCCCCC)[C@@H](O)[C@H](O)[C@H]2O)[C@H](O)[C@@H](O)[C@@H]1O ; strain: NJ211 ; value: 8 µg/mL
Cc1c(CN2CCN(C)CC2)cc(-c2ccc(Cl)cc2)n1-c1ccc(Cl)cc1 ; strain: CIP103317 ; value: 0.4 µg/mL
N#CCC(=O)N/N=C/c1coc2ccccc2c1=O ; strain: MY 80/72 ; value: >50 µg/mL
S=c1oc2c(Cl)cc(Cl)cc2c(=S)n1-c1ccc(Cl)cc1 ; strain: 330/88 ; value: 64 µM
Cc1ccn2c(C(=O)NCc3ccc(N4CCOCC4)c(F)c3)c(C)nc2c1 ; strain: 101 ; method: resazurin ; value: <2 µM
CCc1ccc(NC(=S)c2cc(Cl)ccc2O)cc1 ; strain: MY330/88 ; value: 31 µM
CCCCCOc1ccccc1NC(=O)OCCN(C)C ; strain: MY330/88 ; value: 62.5 µM
[N-]=[N+]=NC[C@H]1O[C@H](O[C@H]2O[C@H](CN=[N+]=[N-])[C@@H](O)[C@H](O)[C@H]2O)[C@H](O)[C@@H](O)[C@@H]1O ; strain: NJ168 ; value: >128 µg/mL
O=C(CCC(=O)Nc1ccc(F)cc1)Nc1ccc(F)cc1 ; value: 1000 µM
Cc1c(CN2CCSCC2)cc(-c2ccc(F)cc2)n1-c1ccc(F)cc1 ; value: >16 µg/mL
CCCCCCOc1cccc(NC(=O)OCCN2CCCCC2)c1 ; strain: MY330/88 ; value: 32 µM
Oc1ccc(Cl)cc1C(=S)Nc1ccc(Cl)cc1 ; strain: MY330/88 ; value: 31 µM
O=c1c(/C=N/c2nc3ccc(Cl)cc3s2)coc2ccc(Cl)cc12 ; strain: MY 80/72 ; value: >100 µg/mL
Cc1ccc2nc(C)c(C(=O)NCc3ccc(C(F)(F)F)cc3)n2c1 ; strain: A5 ; method: resazurin ; value: >1 µg/mL
Cc1cccc(C(N)=Nc2nc(-c3ccccn3)cc3ccccc23)c1 ; strain: SK-28 ; value: 2 µg/mL
C=CC[N+]1(CCOC(=O)Nc2ccccc2OCCCCCC)CCCCC1 ; strain: MY330/88 ; value: 125 µM
COc1cccc(C(=O)NCc2ccccn2)c1O ; strain: ATCC 25291 ; conditions: 14 d ; value: 1000 µM
CCNC1Oc2cc(Cl)ccc2C(=O)/C1=C/Nc1ccc2[nH]c(=S)sc2c1 ; strain: MY 80/72 ; value: 5 µg/mL
O=C(c1ccncc1)N(NCc1cccc([N+](=O)[O-])c1)C(=O)c1cnccn1 ; strain: ATCC49601 ; value: >16 µg/mL
NC(=S)c1cc(SCc2ccc(Cl)cc2)ccn1 ; strain: CNCTC MY330/88 ; value: 7.94 µM
Cc1c(CN2CCSCC2)cc(-c2ccccc2)n1-c1ccc(F)cc1 ; value: 2 µg/mL
CCCCS(=O)(=O)NC[C@H]1O[C@H](O[C@H]2O[C@H](CNS(=O)(=O)CCC)[C@@H](O)[C@H](O)[C@H]2O)[C@H](O)[C@@H](O)[C@@H]1O ; strain: NJ168 ; value: >128 µg/mL
CC(C)c1ccc(NC(=S)c2cc(Cl)ccc2O)cc1 ; strain: MY330/88 ; value: 31 µM
CC(C)(C)c1ccc(NC(=O)c2cc(Cl)ccc2O)cc1 ; strain: MY330/88 ; value: 16 µM
C[C@H]1COc2c(N3CCN(C)CC3)c(F)cc3c(=O)c(C(=O)O)cn1c23 ; strain: ATCC 25291 ; value: 1 µg/mL
CCCCCCCC[N+]1(CCOC(=O)Nc2ccccc2OCCCCCC)CCCCC1 ; strain: MY330/88 ; value: 32 µM
Cc1ccc(-n2c(=S)oc3c(Cl)cc(Cl)cc3c2=S)cc1 ; strain: 330/88 ; value: 125 µM
Cc1cccc(C(=O)NCc2ccccn2)c1O ; strain: ATCC 25291 ; conditions: 21 d ; value: 250 µM
Cc1ccn2c(C(=O)NCc3cccc(OC(F)(F)F)c3)c(C)nc2c1 ; strain: 2151 ; method: resazurin ; value: 2–10 µM
C[C@@H]1CN(c2c(F)c(N)c3c(=O)c(C(=O)O)cn(C4CC4)c3c2F)C[C@H](C)N1 ; strain: 11 strains ; value: 0.63–10 µg/mL
S=c1[nH]c2ccccc2c(=S)n1-c1ccc(Br)cc1 ; strain: 330/88 ; value: >64 µM
COc1ccc(CNN(C(=O)c2ccncc2)C(=O)c2cnccn2)cc1 ; strain: ATCC49601 ; value: >16 µg/mL
NC(=S)c1cc(SCc2cccc(F)c2)ccn1 ; strain: CNCTC MY330/88 ; value: 15.85 µM
CCCCc1ccc(NC(=O)c2cc(Cl)ccc2O)cc1 ; strain: MY330/88 ; value: 8 µM
CCCCCCCCCCCCN(CCCCCCCCCCCC)C[C@H]1O[C@H](O[C@H]2O[C@H](CN(CCCCCCCCCCCC)CCCCCCCCCCCC)[C@@H](O)[C@H](O)[C@H]2O)[C@H](O)[C@@H](O)[C@@H]1O ; strain: NJ3404 ; value: >128 µg/mL
COc1ccc(NC(=S)c2cc(Cl)ccc2O)cc1 ; strain: MY330/88 ; value: >16 µM
CC(=O)Nc1ccc(/C=N/NC(N)=S)cc1 ; strain: 1854 ; value: 0.08 µg/mL
CCCCCCCCCCCCCCCCS(=O)(=O)NC[C@H]1O[C@H](O[C@H]2O[C@H](CNS(=O)(=O)CCCCCCCCCCCCCCCC)[C@@H](O)[C@H](O)[C@H]2O)[C@H](O)[C@@H](O)[C@@H]1O ; strain: NJ168 ; value: >64 µg/mL
Cc1c(CN2CCN(C)CC2)cc(-c2ccccc2Cl)n1-c1cccc2ccccc12 ; value: 4 µg/mL
C=CCS/C(N)=N\N=C\c1ccc(F)cc1 ; strain: ATCC 19421 ; value: 12.5 µg/mL
N#Cc1cc(SCc2cccc(Cl)c2)ccn1 ; strain: CNCTC MY330/88 ; value: 30.9 µM
N/C(=N\N=C\c1ccccc1)c1ccncc1 ; strain: Isoniazid/rifampicin/ofloxacin-resistant ; value: 128 µg/mL
Cc1c(CN2CCSCC2)cc(-c2ccccc2F)n1-c1ccccc1F ; value: >16 µg/mL
N#Cc1cc(SCc2ccc(Cl)cc2)ccn1 ; strain: CNCTC MY330/88 ; value: 15.85 µM
O=C(N/N=C/c1coc2ccc(Cl)cc2c1=O)c1ccncc1 ; strain: MY 80/72 ; value: >100 µg/mL
Cc1c(CN2CCN(C)CC2)cc(-c2ccccc2F)n1-c1cccc2ccccc12 ; value: 4 µg/mL
CCCCCCCCc1ccc(NC(=O)c2ccc(Cl)cc2O)cc1 ; strain: MY330/88 ; value: 8 µM
O=C(CCC(=O)Nc1cccc(Cl)c1)Nc1cccc(Cl)c1 ; value: >1000 µM
N/C(=N\N=C\c1ccc(Br)cc1)c1ccncc1 ; strain: Isoniazid/rifampicin/ofloxacin-resistant ; value: 64 µg/mL
O=C(CCC(=O)Nc1ccc(Cl)c(Cl)c1)Nc1ccc(Cl)c(Cl)c1 ; value: 250 µM
O=C(NCc1ccccn1)c1ccc(Cl)cc1O ; strain: ATCC 25291 ; conditions: 14 d ; value: 500 µM
CCCCCCCCS(=O)(=O)NC[C@H]1O[C@H](O[C@H]2O[C@H](CNS(=O)(=O)CCCCCCCC)[C@@H](O)[C@H](O)[C@H]2O)[C@H](O)[C@@H](O)[C@@H]1O ; strain: NJ3404 ; value: 32–64 µg/mL
N#Cc1cc(SCc2cccc(Br)c2)ccn1 ; strain: CNCTC MY330/88 ; value: 15.85 µM
N/C(=N\N=C\c1cccc(Br)c1)c1ccncc1 ; strain: Isoniazid/rifampicin/ofloxacin-resistant ; value: 16 µg/mL
CCCCCCOc1ccccc1NC(=O)OCC[N+]1(CCCCCC)CCCCC1 ; strain: MY330/88 ; value: 32 µM
Cc1c(CN2CCSCC2)cc(-c2ccccc2)n1-c1ccccc1 ; value: 16 µg/mL
NNC(=O)c1ccncc1 ; strain: 1854-4 ; value: 1.25 µg/mL
O=C(c1ccncc1)N(/N=C/c1ccccc1Cl)C(=O)c1cnccn1 ; strain: ATCC49601 ; value: >16 µg/mL
CC(C)c1c(O)cc([C@H](N=C(N)N)C(=O)NCC(=O)O)cc1O ; strain: Strain 1 ; value: 1.56 µg/mL
Cc1ccc(-n2c(=S)[nH]c3ccccc3c2=S)cc1 ; strain: 330/88 ; value: 32 µM
N#Cc1cc(SCc2cccc(F)c2)ccn1 ; strain: CNCTC MY330/88 ; value: 61.66 µM
CCCCc1ccc(NC(=O)CCC(=O)Nc2ccc(CCCC)cc2)cc1 ; value: 63 µM
CCCCc1ccc(NC(=O)c2cc(Br)ccc2O)cc1 ; strain: MY330/88 ; value: 8 µM
CCCCCCCCCCC[N+]1(CCOC(=O)Nc2ccccc2OCCCCCC)CCCCC1 ; strain: MY330/88 ; value: 16 µM
CCCCCC(N)=NC[C@H]1O[C@H](O[C@H]2O[C@H](CN=C(N)CCCCC)[C@@H](O)[C@H](O)[C@H]2O)[C@H](O)[C@@H](O)[C@@H]1O ; strain: NJ211 ; value: >128 µg/mL
Cc1ccn2c(C(=O)NCc3ccc(N4CCC(NC(=O)OC(C)(C)C)CC4)c(F)c3)c(C)nc2c1 ; strain: 101 ; method: resazurin ; value: <2 µM
Cc1c(CN2CCSCC2)cc(-c2ccccc2)n1-c1cccc2ccccc12 ; value: >16 µg/mL
CCCCCCCc1ccc(NC(=O)c2cc(Cl)ccc2O)cc1 ; strain: MY330/88 ; value: 4 µM
CC(=O)NC[C@H]1CN(c2ccc(N3CCN(c4ccc([N+](=O)[O-])s4)CC3)c(F)c2)C(=O)O1 ; strain: ATCC1723 ; value: 0.25 µg/mL

Again, the opening 7 rows:

structure	strain	changes	method	conditions	value
Cc1ccc2occ(/C=N/c3nc4c(Cl)cccc4s3)c(=O)c2c1	MY 80/72	-	-	-	>100 µg/mL
Cc1ccn2c(C(=O)NCc3ccc(N4CCN(c5ccc(C(F)(F)F)cn5)CC4)c(F)c3)c(C)nc2c1	104	Gentamicin-resistant	resazurin	-	<0.0078 µg/mL
O=C(NCc1cccnc1)c1ccccc1O	ATCC 25291	-	-	14 d	500 µM
CC(C)c1c(O)cc(C(N=C(N)N)C(=O)NCC(=O)O)cc1O	Strain #2	-	-	-	3.13 µg/mL
CCCCCCc1ccc(NC(=O)c2cc(Br)ccc2O)cc1	MY330/88	-	-	-	16 µM
COc1cc(/C=N/N(C(=O)c2ccncc2)C(=O)c2cnccn2)ccc1O	ATCC49601	-	-	-	>16 µg/mL
CCOc1cccc(NC(=O)OCC[NH+]2CCCC2)c1	MY330/88	-	-	-	>1000 µM